The target of this test is recombinant soluble MERS-CoV S ectodomain (MERS-S^ecto) (MERS-CoV EMC isolate). The test is described as follows: BLI, Table 1 'Binding kinetics of mAbs/MERS-S^ecto or DPP4/MERS-S^ecto' [A]. For orientation: In BLI a coated tip is dipped into the sample, and binding shifts an interference pattern.

In general, Kd refers to the constant that tells how readily two partners part at equilibrium. A word on the koff: it is a measure of how fast the partners let go of each other. Broadly, the kon is the rate constant with which the complex forms. Turning to “soluble human DPP4 (dipeptidyl peptidase 4) ectodomain (from UniProt P27487 39-766) (receptor)”, the Kd was determined as 3.42 nM, the koff is 4.86e-05 s⁻¹ and the kon was found to be 14200 M⁻¹ s⁻¹.

For the origin of these results see patent publication US20220275059A1.
